Measured values from patent US7999099B2, “Modified 5′-phosphonate azidothymidine—potential anti-viral preparations” (priority 2004, dated 2011).

Assays:
[1] = Pharmacokinetics of generated AZT in dog blood after oral administration; type: in vivo; conditions: of azidothymidine, amount equivalent to 250 mg of AZT
Protocol: A dog weighing 12 kg was orally given 250 mg of the investigational compound (mixed with curd). Blood samples (1 ml) were taken at defined intervals from the femoral vein. The samples were centrifuged (10 minutes at 2000 rpm) and the supernatant was separated. Oxetan (internal standard, 0.25 […]g) and methanol (0.75 ml) were added to aliquots of the supernatant (0.25 ml). The resulting mixture was centrifuged for 3 minutes at 5000 rpm. The supernatant was separated and evaporated in air flow at 40° C., water (1 ml) was added to the residue. Aliqutes (20[…]1) were analyzed by HPLC in Gynkotec chromatograph (Germany) using Ultrasphere ODC Beckman analytical column (USA). Eluent: 6% acetonitrile in 0.1% H3PO4 (pH 2.1) in the presence of 0.15% triethylamine; detection at […]max 265 nm at 30° C.

[2] = system: MT-4 cells; assay: Assessment of cytotoxicity in MT-4 cells (MTT); type: cell-based; conditions: 4 days
Protocol: Drug cytotoxicity is assessed by adding its dilutions in serum-free RPMI-1640 medium to MT-4 cell suspension (initial concentration in the wells of a 96-well plate (Cel-Cult, UK) to final concentrations of 0.001-100 µg/ml (3 wells per dose) and cultivating at 37° C. for 4 days. Inoculation concentration is 0.5 ? 10^6 cells/ml is used. Cells in the same volume serum-free medium containing no drug are used as control. Viable cells are counted on the 4th day of cultivation using the formasan method (MTT staining of live cells). Toxicity of various doses of the drug is assessed by comparing cell viability with the control, the results are used to plot the dose-dependent curve and determine the concentration reducing cell viability by 50% (CD50). Effective concentrations of the investigational compounds produce on toxic effect on MT-4 cells. It should be noted that 50% toxic doses are 5-6 orders higher than does effective against HIV-1 (table 1).

5′-Aminocarbonylphosphonyl-3′-azido-3′-deoxythymidine [Ie]
AUC [1]: 9240 ng·h/mL | CL [1]: 27.0 L/h | Cmax [1]: 740 ng/mL | MRT [1]: 13.9 h | T1/2 [1]: 9.6 h | Tmax [1]: 5.0 h | CD50 (concentration reducing cell viability by 50%) [2]: >300 µM

5′-Chloromethylphosphonyl-3′-azido-3′-deoxythymidine [Ia]
CD50 (concentration reducing cell viability by 50%) [2]: 300 µM

5′-Hydroxymethylphosphonyl-3′-azido-3′-deoxythymidine [Ic]
CD50 (concentration reducing cell viability by 50%) [2]: >500 µM

5′-Iodomethylphosphonyl-3′-azido-3′-deoxythymidine [Ib]
CD50 (concentration reducing cell viability by 50%) [2]: >500 µM

5′-Methoxymethylphosphonyl-3′-azido-3′-deoxythymidine
CD50 (concentration reducing cell viability by 50%) [2]: >500 µM
